Measured values from several laboratories, pooled; numbers as filed in NIAID ChemDB.

Common to all: growth or infection tests; organism: Mycobacterium tuberculosis

A number after MIC or MFC names an inhibition level or a share of isolates.

SMILES	cell line	dose	strain or isolate	read by	mutations	endpoint	value
CCOC(=O)Cn1nc(-c2ccc([N+](=O)[O-])o2)oc1=O	-	12.5 µg/mL	H37Rv	BACTEC	-	inhibition	33%
CCOC(=O)Cc1cc(C2CCCC2)nc2c(C3CCCC3)cccc12	-	6.25 µg/mL	H37Rv	-	-	inhibition	99%
C[C@H]1COc2c(N3CCN(C)CC3)c(F)cc3c(=O)c(C(=O)O)cn1c23	-	-	001-013 (drug-resistant)	-	-	MIC	0.75 µg/mL
CCC(C)OC(=O)CSc1nc(N)c2c3c(sc2n1)CC(C(C)(C)C)CC3	-	-	H37Rv	MTT / visual reading	-	MIC	1.5 µg/mL
O=C1c2ccccc2C(=O)c2c(NCCNCCO)ccc(O)c21	-	12.5 µg/mL	H37Rv	BACTEC	-	inhibition	99%
O=C1c2cc(I)ccc2-n2c1nc1ncccc1c2=O	-	-	TN1082RFLP:V (DRUG sensitive)	-	-	MIC	0.03 µg/mL
CN(C)c1nc(=O)c2ccccc2o1	-	12.5 µg/mL	H37Rv	BACTEC	-	inhibition	-12%
COC(=O)Cc1cc(C2CCCCC2)nc2c(C3CCCCC3)cccc12	-	-	H37Rv	-	-	MIC	>6.25 µg/mL
COc1cccc(/C=c2\[nH]c(=O)/c(=C\c3cccc(OC)c3OC)[nH]c2=O)c1OC	-	-	H37Rv	BACTEC	-	MIC bound	>12.5 µg/mL
N[C@@H]1CONC1=O	-	-	92-0492 MDR (INH RIF-resistant)	-	-	MIC	50 µg/mL
O=C1C(Cl)=CC(=NS(=O)(=O)c2ccccc2)C=C1Cl	-	-	H37Rv	BACTEC	-	MIC bound	>12.5 µg/mL
CCCCCCCCS(=O)(=O)CC(N)=O	-	-	OT2769	-	-	MIC	≤12.5 µg/mL
O=C(/C=C/c1ccccc1)OCC1=CC(O)[C@@H]2C=CO[C@@H](O[C@@H]3O[C@H](CO)[C@@H](O)[C@H](O)[C@H]3O)[C@H]12	-	-	H37Rv	BACTEC	-	MIC	≥12.5 µg/mL
NCC[C@H](O)C(=O)N[C@@H]1C[C@H](N)[C@@H](O[C@H]2O[C@H](CN)[C@@H](O)[C@H](O)[C@H]2O)[C@H](O)[C@H]1O[C@H]1O[C@H](CO)[C@@H](O)[C@H](N)[C@H]1O	-	-	90-0240 (drug-susceptible)	-	-	MIC	0.5 µg/mL
Cc1nc2ccccc2c(=O)o1	-	6.25 µg/mL	H37Rv	resazurin	-	inhibition	10%
O=C(O)c1cc([N+](=O)[O-])c2oc3ccc([N+](=O)[O-])cc3c(=O)c2c1	-	16 µg/mL	H37Rv	-	-	inhibition	inactive
COc1cc(C(O)C[N+](=O)[O-])cc(Br)c1OC	-	-	H37Rv	-	-	MIC	125 µg/mL
CCCCc1ccc2c(c1)C(=O)c1nc3ccncc3c(=O)n1-2	-	-	H37Rv	-	-	MIC	0.015 µg/mL
CC(C)(C)c1ccc(N2CCN(Cc3ccc([N+](=O)[O-])o3)CC2)cc1	-	-	Clinical Isolate 16995	resazurin	INH RFP resistant	MIC90	2.12 µg/mL
O=C(O)c1ccc2ccccc2n1	-	-	H37Rv	-	-	MIC	>6.25 µg/mL
O=[N+]([O-])c1ccc(CN2CCC3(CC2)CCN(c2cccc(C(F)(F)F)c2)CC3)o1	-	-	H37Rv	resazurin	-	MIC90	0.035 µg/mL
COc1ccc2c(=O)n(-c3ccc(C)cc3)c(=O)oc2c1	-	-	CNCTC MY331/88	-	-	MIC	16 µM
CCOC(=O)Cc1cc(C2CCCCC2)nc2c(C3CCCCC3)cccc12	-	6.25 µg/mL	H37Rv	-	-	inhibition	99%
NC[C@H]1O[C@H](O[C@H]2[C@H](O)[C@@H](O[C@H]3O[C@H](CO)[C@@H](O)[C@H](N)[C@H]3O)[C@H](N)C[C@@H]2N)[C@H](O)[C@@H](O)[C@@H]1O	-	-	90-0233 (INH SM-RS)	-	-	MIC	4 µg/mL
NNC(=O)c1ccncc1	-	-	Strain 474	-	-	MIC	8 µg/mL
COc1ccc(/C=C2\Oc3c(Br)c(OC)cc(OC)c3C2=O)cc1	-	-	H37Rv	BACTEC	-	MIC bound	>12.5 µg/mL
COc1cc(C(OC(C)=O)OC(C)=O)ccc1Oc1cc(C(OC(C)=O)OC(C)=O)cc(OC)c1OC(C)=O	-	-	H37Rv	-	-	MIC	125–250 µg/mL
O=S(=O)([O-])Oc1cc2c(c(OS(=O)(=O)[O-])c1)CC(OS(=O)(=O)[O-])C(c1ccc(OS(=O)(=O)[O-])c(OS(=O)(=O)[O-])c1)O2.[K+].[K+].[K+].[K+].[K+]	-	12.5 µg/mL	H37Rv	BACTEC	-	inhibition	16%
CC(C)N=c1cc2n(-c3ccc(Cl)cc3)c3ccccc3nc-2cc1Nc1ccc(Cl)cc1	-	-	90-0240 (drug-susceptible)	-	-	MIC	0.4 µg/mL
Cn1c(=O)c2[nH]c(CCCCCCCc3nc4ccccc4[nH]3)nc2n(C)c1=O	-	-	H37Rv	resazurin	-	MIC	>6.25 µg/mL
NNC(=O)c1ccncc1	-	-	Clinical Isolate 16833	resazurin	INH RFP resistant	MIC90	>40 µg/mL
COc1ccc(CC2C3=C(CCCC3)CCN2c2c([N+](=O)[O-])cc3c(=O)c(C(=O)O)cn(-c4ccc(F)cc4F)c3c2C)cc1	-	-	H37Rv	-	-	MIC	20.3 µM
COc1cc(C=O)cc([N+](=O)[O-])c1Cc1cc(C=O)cc(OC)c1OC	-	-	H37Rv	-	-	MIC	125–250 µg/mL
CC(=O)NC[C@H]1CN(c2ccc(N3CCOCC3)c(F)c2)C(=O)O1	-	-	Strain 474	-	-	MIC	0.25 µg/mL
Cc1ccc(NC(=O)C(=O)CC(=O)c2c(C)n([O-])c3ccccc3[n+]2=O)cc1	-	-	H37Rv	BACTEC	-	MIC bound	>12.5 µg/mL
O=c1oc2cc(Cl)ccc2c(=O)n1-c1cccc(F)c1	-	-	CNCTC MY331/88	-	-	MIC	8 µM
COc1c(N2CCNC(C)C2)c(F)cc2c(=O)c(C(=O)O)cn(C3CC3)c12	-	-	H37Rv	-	-	MIC	1.04 µM
COC(=O)c1cccc2oc3ccc([N+](=O)[O-])cc3c(=O)c12	-	32 µg/mL	H37Rv	-	-	inhibition	inactive
O=c1cc(-c2ccccc2)c2cc(Cl)ccc2o1	-	-	-	resazurin	Rifampicin-resistant	MIC90	>100 µg/mL
CCCCCCCC(=O)N1[C@H]2[C@@H]1CN1C3=C(C(=O)C(N)=C(C)C3=O)[C@@H](COC(N)=O)[C@@]21OC	-	-	H37Rv	BACTEC	-	MIC	0.4 µg/mL
NC(=O)c1cccc2oc3ccccc3c(=O)c12	-	32 µg/mL	H37Rv	-	-	inhibition	inactive
O=C1c2cc(I)ccc2-n2c1nc1c(Br)cc(Br)c(F)c1c2=O	-	-	H37Rv	-	-	MIC	0.06 µg/mL
CCCCNC(=S)S	-	-	PZA-R	-	-	MIC	>12.5 µg/mL
CC1COc2c(N3CCN(C)CC3)c(F)cc3c(=O)c(C(=O)O)cn1c23	-	-	90-0216 (drug-susceptible)	-	-	MIC	0.5 µg/mL
CO[C@H]1/C=C/O[C@@]2(C)Oc3c(C)c(O)c4c(O)c(c5c(c4c3C2=O)NC2(CCN(CC(C)C)CC2)N=5)=NC(=O)/C(C)=C\C=C\[C@H](C)[C@H](O)[C@@H](C)[C@@H](O)[C@@H](C)[C@H](OC(C)=O)[C@@H]1C	-	-	1 isolates (Gln490His)	-	-	MIC	>5 µg/mL
COC(=O)Cc1ccc(Oc2cc(C(OC(C)=O)OC(C)=O)cc(OC)c2OC(C)=O)c(NC(C)=O)c1	-	-	H37Rv	-	-	MIC	125–250 µg/mL
O=c1oc2ccc([N+](=O)[O-])cc2c(=O)n1-c1cccc(Cl)c1	-	-	CNCTC MY331/88	-	-	MIC	16 µM
COc1cc(/C=C/C(C)C)cc(Oc2c([N+](=O)[O-])cc(/C=C/C(=O)O)cc2[N+](=O)[O-])c1O	-	-	H37Rv	-	-	MIC	7.8 µg/mL
Cc1cc([N+](=O)[O-])cc2c(=O)c3cc([N+](=O)[O-])ccc3oc12	-	4 µg/mL	H37Rv	-	-	inhibition	inactive
N[C@@H]1CONC1=O	-	-	Isolate TN6515	-	-	MIC	14 µg/mL
O=C(NC(C/C=C/c1ccc2c(c1)C(=O)c1nc3cc(Cl)cc(Cl)c3c(=O)n1-2)C(=O)O)OCC1c2ccccc2-c2ccccc21	-	-	H37Rv	-	-	MIC	25 µg/mL
O=C(NNC(=O)c1cccc(C(=O)NNC(=O)c2ccc(Cl)c(Cl)c2)n1)c1ccc(Cl)c(Cl)c1	-	-	H37Rv	BACTEC	-	MIC bound	>12.5 µg/mL
CC(C)(C)C1CCc2c(sc3nc(SCC(N)=O)nc(N)c23)C1	-	-	H37Rv	MTT / visual reading	-	MIC	12 µg/mL
CCCCCCCCc1ccc2c(c1)C(=O)c1nc3ccncc3c(=O)n1-2	-	-	10038RFLP:W (MDR)	-	-	MIC	≤0.015 µg/mL
CCC1CN(c2c(F)cc3c(=O)c(C(=O)O)cn(C4CC4)c3c2OC)CCN1	-	-	Isolate TN6515	-	-	MIC	0.07 µg/mL
COC(=O)c1cc(C2CCCC2)nc2ccccc12	-	-	H37Rv	-	-	MIC	>6.25 µg/mL
COc1cc2c(cc1OC)CN(c1c([N+](=O)[O-])cc3c(=O)c(C(=O)O)cn(C4CC4)c3c1C)CC2	-	-	H37Rv	-	-	MIC	0.39 µM
[N-]=[N+]=CC(=O)NC(Cc1ccccc1)C(=O)NN	-	-	H37Rv	BACTEC	-	MIC bound	>12.5 µg/mL
CO[C@H]1/C=C/O[C@@]2(C)Oc3c(C)c(O)c4c(O)c(c5c(c4c3C2=O)NC2(CCN(CC(C)C)CC2)N=5)=NC(=O)/C(C)=C\C=C\[C@H](C)[C@H](O)[C@@H](C)[C@@H](O)[C@@H](C)[C@H](OC(C)=O)[C@@H]1C	-	-	33 (rifampicin-resistant)	-	-	MIC	>2 µg/mL
COc1ccc2c(=O)n(-c3ccc(Cl)cc3)c(=O)oc2c1	-	-	CNCTC MY331/88	-	-	MIC	16 µM
O=C(O)c1ccc2oc3ccc([N+](=O)[O-])cc3c(=O)c2c1	-	32 µg/mL	H37Rv	-	-	inhibition	inactive
Cc1c(N2CCC(O)(c3ccc(Cl)cc3)CC2)c([N+](=O)[O-])cc2c(=O)c(C(=O)O)cn(C(C)(C)C)c12	-	-	H37Rv	-	-	MIC	24.32 µM
CCCCCCC(/C=C/c1ccc(Cl)c(Cl)c1)=N\NC(=O)C(N)=O	-	-	H37Rv	BACTEC	-	MIC bound	>12.5 µg/mL
CCOC(=O)c1ccc2c(c1)C(=O)c1nc3c(OC)cccc3c(=O)n1-2	-	-	H37Rv	-	-	MIC	0.06 µg/mL
NNC(=O)c1ccncc1	-	-	H37Rv	fluorescence / absorbance	-	EC90	1 µM
NC(=O)c1ccc2c(=O)c3ccccc3oc2c1	-	4 µg/mL	H37Rv	-	-	inhibition	inactive
CC1(C)OC(=O)C(=Cc2ccc([N+](=O)[O-])s2)C(=O)O1	VERO	-	H37Rv	resazurin	-	MIC	3.13 µg/mL
O=[N+]([O-])c1ccc(CN2CC3CN(c4ccc(C(F)(F)F)cc4)CC3C2)o1	-	-	H37Rv	resazurin	-	MIC90	0.035 µg/mL
CCSc1nc(N)c2c3c(sc2n1)CC(C(C)(C)C)CC3	-	-	H37Rv	MTT / visual reading	-	MIC	200 µg/mL
CC1=C(N)C(=O)C2=C(C1=O)N1C[C@H]3[C@H](N3C)[C@]1(O)[C@@H]2COC(N)=O	-	-	RMP-R	-	-	MIC	1.6 µg/mL
COC(=O)c1c(C2CCCCC2)nc2ccccc2c1C1CCCCC1	-	6.25 µg/mL	H37Rv	-	-	inhibition	95%
Cc1c([C@H](C)[C@@H]2NC[C@@H](C)C[C@H]2O)ccc2c1C[C@H]1[C@H]2CC=C2C[C@@H](O)CC[C@@]21C	-	128 µg/mL	H37Rv	BACTEC	-	inhibition	100%
CC(C)(C)C1CCc2c(sc3nc(SCC(=O)OCc4ccccc4)nc(N)c23)C1	-	-	H37Rv	MTT / visual reading	-	MIC	1.5 µg/mL
CN(CCO)c1ccc2c(=O)n3c(nc2c1)C(=O)c1cc(F)ccc1-3	-	-	H37Rv	-	-	MIC	0.13 µg/mL
N#Cc1ccc(N2CC3CN(Cc4ccc([N+](=O)[O-])o4)CC3C2)cc1	-	-	H37Rv	resazurin	-	MIC90	0.06 µg/mL
NNC(=O)c1ccncc1	-	-	90-0216 (drug-susceptible)	-	-	MIC	0.04 µg/mL
N#Cc1ccc2c(=O)c3ccccc3oc2c1	-	2 µg/mL	H37Rv	-	-	inhibition	inactive
Cc1ccc(-n2c3nc(=O)n(C)c(=O)c-3nc3ccccc32)c(C)c1	-	12.5 µg/mL	H37Rv	BACTEC	-	inhibition	0%
O=C(O)c1cnc2ccccc2c1C1C2CC3CC(C2)CC1C3	-	6.25 µg/mL	H37Rv	-	-	inhibition	0%
CC(C)=CCOc1c2ccoc2cc2oc(=O)ccc12.NNC(=O)c1ccncc1	-	-	H37Rv clinical isolate CRY8	agar	Isoniazid rifampicin ethambutol-resistant	MIC100	1.56 µg/mL

6 of the rows above, restated:

| SMILES | cell line | dose | strain or isolate | read by | mutations | endpoint | value |
|---|---|---|---|---|---|---|---|
| CC(C)=CCOc1c2ccoc2cc2oc(=O)ccc12.NNC(=O)c1ccncc1 | - | - | H37Rv clinical isolate CRY8 | agar | Isoniazid rifampicin ethambutol-resistant | MIC100 | 1.56 µg/mL |
| CCCCCCCC(=O)N1[C@H]2[C@@H]1CN1C3=C(C(=O)C(N)=C(C)C3=O)[C@@H](COC(N)=O)[C@@]21OC | - | - | H37Rv | BACTEC | - | MIC | 0.4 µg/mL |
| COC(=O)c1c(C2CCCCC2)nc2ccccc2c1C1CCCCC1 | - | 6.25 µg/mL | H37Rv | - | - | inhibition | 95% |
| COc1cc(C(O)C[N+](=O)[O-])cc(Br)c1OC | - | - | H37Rv | - | - | MIC | 125 µg/mL |
| CCCCCCC(/C=C/c1ccc(Cl)c(Cl)c1)=N\NC(=O)C(N)=O | - | - | H37Rv | BACTEC | - | MIC bound | >12.5 µg/mL |
| COc1cc2c(cc1OC)CN(c1c([N+](=O)[O-])cc3c(=O)c(C(=O)O)cn(C4CC4)c3c1C)CC2 | - | - | H37Rv | - | - | MIC | 0.39 µM |

Blank or dashed fields: not listed here. ECn is the concentration giving n% inhibition of infection, replication or growth. Percent inhibition refers to the dose given; in toxicity tests it is the harm to the cells. Two numbers with a dash give a range or band. MIC bound: limit read from a one-dose screen. "inactive" is the filed call at that dose; no cut-off is given. Rows are shuffled and stem from different studies.